From US10500261B2 (priority 2014, dated 2019)

Assays:
[1] = test system: HS23/36 CPS conjugate antisera; settings: 2 μl of 1 mg/ml spotted on nitrocellulose; rabbit serum; chemiluminescence
[2] = test system: HS1 CPS conjugate antisera; settings: 2 μl of 1 mg/ml spotted on nitrocellulose; mouse serum 1:500
[3] = test system: HS4 CPS conjugate antisera; settings: 2 μl of 1 mg/ml spotted on nitrocellulose; rabbit serum
[4] = test system: HS3 CPS conjugate antisera; settings: 2 μl of 1 mg/ml spotted on nitrocellulose; mouse serum 1:500

5-Amino-pentanyl 6-O-methylphosphramidate-β-D-galactopyranoside
recognition by HS23/36 CPS-CRM197 conjugate antiserum [1]: strongly recognized | recognition by HS1 CPS-CRM197 conjugate antiserum [2]: weaker intensity | recognition by HS4 CPS-CRM197 conjugate antiserum [3]: strongly recognized | recognition by HS3 CPS-CRM197 conjugate antiserum [4]: did not react
